Assays:
[1] = system: HepG2 cells; assay: LDH release assay; format: cell-based, human
[2] = system: HepG2 cells; assay: MTT assay; format: cell-based, human

Row | SMILES | S.I. (CC50 values/MIC against S. aureus Newbould) [1] | S.I. (CC50 values/MIC against S. aureus Newbould) [2]
1 | CCCCCCCCCCNc1cc(N)nc(N)n1 [PC383] | 0.4 | 0.8
2 | CCCCCCNc1cc(N)nc(N)n1 [PC206] | 3.9 | 4.2
3 | CCCCCNc1cc(N)nc(N)n1 [PC372] | 4.8 | 4.2

Source: article PMC10451377, “Rationally Designed Pyrimidine Compounds: Promising Novel Antibiotics for the Treatment of Staphylococcus aureus-Associated Bovine Mastitis” (Antibiotics, 2023)
